## Library screen at single concentrations

Values are the deposited “Percent Effect”, in %. The controls that fix the scale are not given in the record; negative values are as filed. This is part of a subset picked to be rich in strong results.

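Whole-cell growth test on Mycobacterium tuberculosis, read after 3 days in glucose-containing 7H9 medium; the read-out is not stated. Compounds at 500 µM. Higher reads as more growth inhibition (inferred: compounds with an IC50 in retests scored well above the rest). Size under these conditions: about 18,000 compounds, about 1,400 of them at 50% or above in at least one test.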

For Cc1nccn1CCCN1CCC2(CCO2)CC1 the result was -8.426%.
For Cc1ccccc1-n1c(C)nnc1SCCC(N)=O the result was 14.01%.
For NCC(O)c1cccc(F)c1 (centres unmarked) the result was 20.81%.
For COCc1nn(CCn2cc(Br)cn2)c(=O)o1 the result was 41.83%.
For CC(C)SCC(=O)Nc1cccnc1-n1cccn1 the result was 41.88%.
For CCOc1cccc(CS(=O)(=O)Cc2cc(C)no2)n1 the result was -5.475%.
For COC(=O)[C@H](C)NC(=O)C1(c2ccccc2F)CC1 the result was 74.18%.
For CC1CCCc2nccn21 (centres unmarked) the result was -0.7317%.
For NCCCN1CCOC1=O the result was -3.624%.
For Cc1cccc2c1N(C(=O)c1ccccn1)CCC2 the result was -10.91%.
For Cc1ncc(S(C)(=O)=O)c(NC2CCOCC2)n1 the result was 9.023%.
For CN(C)CC1CCCN1C(=O)NC1CC1 (centres unmarked) the result was 21.45%.
For Cc1cnc(CCN)nc1 the result was 13.38%.
For COC(=O)CSc1nc2ncc(Br)cc2[nH]1 the result was 3.31%.
For O=c1cnc2cc(Cl)c(Cl)cc2n1CCO the result was -1.02%.
For CN(Cc1ccsc1)S(=O)(=O)c1ccc(C(N)=O)cc1 the result was 29.63%.
For O=C(NCC(O)c1ccc(F)cc1)Nc1cnns1 (centres unmarked) the result was 58.77%.
For COC(=O)c1cccc(CNCCC(=O)N(C)C)c1 the result was 4.377%.
For CCN(CC)S(=O)(=O)CC(=O)Nc1ccc(F)c(C)c1 the result was 58.79%.
For CC(C)(CNC(=O)CC1=CCCCC1)S(C)(=O)=O the result was 20.39%.
For Cc1c(C(=O)NC[C@H]2CCCN2)n(C)c2ccccc12 the result was 50.21%.
For CCS(=O)(=O)CCNC(=O)c1cc(CC(C)C)on1 the result was -12.34%.
For COC(C)C(=O)NCc1cnc(C)s1 (centres unmarked) the result was 14.43%.
For CC1CCN(S(=O)(=O)NC(C)C(C)C)CC1 (centres unmarked) the result was 33.23%.
For CCCS(=O)(=O)NCc1cc[nH]n1 the result was 2.111%.
For CC(C)N(CC(N)=O)C(=O)COc1ccc(F)cc1Br the result was 33.05%.
For CN(Cc1cccnc1)CC1(CO)CC1 the result was 3.425%.
For CC(C)(C)OC(=O)NCCC(=O)NCc1cccnc1 the result was -1.443%.
For O=C(NCCOCc1ccc(Cl)cc1)C1CNCCO1 (centres unmarked) the result was 29.88%.
For CN(CC(=O)NC(C)(C)C)C(=O)c1sccc1Cl the result was 14.44%.
For CC(=O)c1ccc(C(=O)NC2CCCCNC2=O)s1 (centres unmarked) the result was 4.03%.
For O=C(c1cc(Br)c[nH]1)N1CCCCC1 the result was 13.41%.
For CNS(=O)(=O)c1ccc(NC2CCC2)cc1OC the result was 3.478%.
For NC(=O)C1CCCN(CCc2ccccc2)C1 (centres unmarked) the result was 85.82%.
For Cc1ccsc1C(C)NCCS(=O)(=O)N1CCOCC1 (centres unmarked) the result was 38.69%.
For COCC(=O)NCc1noc(-c2cccc(C)c2)n1 the result was 49.98%.
For CCC(CO)NC(=O)Nc1ccc(N2CCCC2)nc1 (centres unmarked) the result was 1.875%.
For OC[C@@H]1CCCN1Cc1cccc(F)c1F the result was 58.3%.

3 of the entries, repeated:

SMILES	Percent Effect
CC(C)(CNC(=O)CC1=CCCCC1)S(C)(=O)=O	20.39
CCN(CC)S(=O)(=O)CC(=O)Nc1ccc(F)c(C)c1	58.79
CC1CCCc2nccn21 (centres unmarked)	-0.7317

Measurements from “University of Dundee, Small-Polar-MMV Screening Library” (2021), ChEMBL document CHEMBL3988442.